The results in this text go back to patent US11767289B2, “Methods and compositions for pest control” (VMI Foundation, priority 2010, dated 2023).

This series relates to Solenopsis invicta. Nature of the series: GC-MS quantification of tyramides in dissected fire ant alates and newly mated queens. To be noted: for tyramide level in male reproductive system, mean±SE: per male alate, S. invicta mature male alates.

As for `CC(=O)NCCc1ccc(O)cc1` [Compound 1, acetyl tyramide], the “tyramide level in male reproductive system, mean±SE” value is 2.9 ± 1.6 µg. Further, for the setting “S. invicta female alates, poison sac/sting apparatus removed”, the “tyramide level in female alate abdomens” value is on record as “not detectable”.
For `CCCCCC(=O)NCCc1ccc(O)cc1` [Compound 6, N-[2-(4-hydroxyphenyl)ethyl]hexanamide], the “tyramide level in male reproductive system, mean±SE” value is 3.9 ± 1.9 µg.
